Source: PMC5388806

Protein sequences, listed by entry. Tags and fused reporters are not part of them. Lines headed by an entry give the natural chain unless they say otherwise; changes in a name come on top.
UniProt P39897: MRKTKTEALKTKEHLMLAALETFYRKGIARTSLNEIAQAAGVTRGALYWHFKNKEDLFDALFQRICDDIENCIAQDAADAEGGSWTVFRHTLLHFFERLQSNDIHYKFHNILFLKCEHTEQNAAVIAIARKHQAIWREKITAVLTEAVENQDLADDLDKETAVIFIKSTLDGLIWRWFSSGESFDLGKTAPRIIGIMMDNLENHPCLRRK

Columns and labels:
[1] = biological target: MtrR-MBP (Neisseria gonorrhoeae) (UniProt P39897); assay: EMSA; conditions: 2 ug MtrR-MBP, complete shift; 30 ul reaction buffer (composition not stated), room temperature; 6% native PAGE at 4 C; 2 ug MtrR-MBP or 1 ug GdhR-His; recombinant protein; protein details: MBP fusion; label: 32P; probe letters rebuilt from the primers and the genome
[2] = test system: T1, GdhR-His; assay: EMSA with competition; conditions: 1 ug GdhR-His, 50x and 100x unlabeled PgdhA; 30 ul reaction buffer (composition not stated), room temperature; 6% native PAGE at 4 C; 2 ug MtrR-MBP or 1 ug GdhR-His; recombinant protein; residues 1-259; protein details: His (pET15b, NdeI/BamHI); label: 32P; probe letters rebuilt from the primers and the genome
T1 sequence (looked up): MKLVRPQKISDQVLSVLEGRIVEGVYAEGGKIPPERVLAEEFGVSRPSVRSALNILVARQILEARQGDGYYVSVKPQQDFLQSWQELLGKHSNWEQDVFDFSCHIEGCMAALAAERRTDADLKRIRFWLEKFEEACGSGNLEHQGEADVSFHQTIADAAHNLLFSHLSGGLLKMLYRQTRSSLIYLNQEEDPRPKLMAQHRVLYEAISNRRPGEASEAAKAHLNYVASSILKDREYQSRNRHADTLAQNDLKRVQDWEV

Row | Sequence | binding result [1] | binding result [2]
1 | GTTTCATCACTCCTCCTTTATAAAGATTCCCTGCAGAACCCTTCCGAAATACATCAAACATCAAATTGGACTGGCCAATCAGGGCGGATTCTAATGACACGCCGTTCCCGCCGTCAACGGCACTTACCTCGCACCGCCCCCGAAACACAGGAAAAAACTACACCAAACTACAATTTTTGTTCATGCAAATATTTGTTTTAACGGGATTTAAATGAAAGCTCCGATTCAAATCTGCCGAACCGCCCAAAAATATATTGACCTGAATATTAAAGTTTCGTAAAGTAATGCAACGTTGCTTTAATTGGTTTGACCACTATTGCCGACGATTAGAAAAATATTTTCGGAGATGTTCAATTATGGAAACTTGGGTTCAAAACTACACGGCAATCGGCG (double strand) [R3/R2 (gdhR promoter)] | binds | 
2 | GTTGTTGGCAATTTCAGCCCTTTTTCACAGCAAAAGCAGGCGTGAAAACAAAATTATCTTGATTGGAATCAAAAAATCTAGTTTAACTACTTAGAATAAAATTCCAATAATATTTTTTATTTGAGAAATTAATTTATGATTATTGGTTGATTATCGGCAATAAACATCATATATCGAAAATATGGGAAAAATAATGTCAACAATTTGTGCAAAATTAGGCTTGGCATCAGAAAAAAATAGGTTTATATTGCCAACTACAAATTTGTTTTCCCATTAGTACAATATCAACCAAAAGGAGTATCCGAATGACG (double strand) [PgdhA] |  | binds

For some assays here: Protein sequences can lack the tags named with them. For some assays here: The exact form of at least one protein or probe is not confirmed.
